Mutational interference map of HIV-1 RNA dimerization

Source: Ye et al. 2022 (doi:10.1038/s41594-022-00746-2), supplementary data.

RNA: 5' end of the HIV-1 NL4-3 genome, made in vitro. Positions 1-437 read:
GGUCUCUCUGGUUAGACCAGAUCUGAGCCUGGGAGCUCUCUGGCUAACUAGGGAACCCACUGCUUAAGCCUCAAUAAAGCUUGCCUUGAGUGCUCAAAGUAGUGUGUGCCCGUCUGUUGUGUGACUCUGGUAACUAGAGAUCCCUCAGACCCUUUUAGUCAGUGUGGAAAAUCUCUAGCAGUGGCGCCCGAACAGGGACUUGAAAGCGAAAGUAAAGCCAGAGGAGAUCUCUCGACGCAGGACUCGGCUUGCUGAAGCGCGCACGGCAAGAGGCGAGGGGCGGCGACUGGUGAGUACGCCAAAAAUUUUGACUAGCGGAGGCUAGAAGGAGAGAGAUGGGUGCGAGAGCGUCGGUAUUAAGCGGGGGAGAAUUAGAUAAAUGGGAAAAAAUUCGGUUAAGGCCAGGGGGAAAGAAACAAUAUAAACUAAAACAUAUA

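Mutant RNA libraries with 1G, 2G or 3G starts, with or without cap, were folded at 37 °C for 30 min. High salt was 300 mM KCl and 5 mM MgCl2, low salt 40 mM KCl and 0.1 mM MgCl2; monomer and dimer were parted on a native gel. Kdimer compares mutation frequencies in monomer and dimer, corrected for sequencing errors.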

Scale: median log2 Kdimer over the changes at a position; positive = changes inhibit dimerization, negative = changes enhance it. One numbering serves 1G, 2G and 3G. A position is written with its base.

position	domain	2G capped high-salt	2G capped low-salt	2G uncapped high-salt	2G uncapped low-salt
A370	none	0.15	0.08	0.13	0.14
A371	none	0.01	-0.54	-0.14	-0.27
U372	none	-0.11	-0.07	0.01	-0.03
U373	none	-0.09	0.06	-0.03	-0.06
A374	none	0.10	0.06	0.09	0.01
G375	none	0.12	-0.10	0.03	-0.14
A376	none	0.06	-0.09	0.05	0.06
U377	none	-0.09	-0.17	0.17	-0.26
A378	none	-0.04	-0.02	0.04	0.08
A379	none	-0.06	0.05	0.02	0.06
A380	none	0.06	-0.10	0.01	-0.09
U381	none	0.07	-0.08	-0.04	-0.08
G382	none	-0.04	-0.12	0.10	0.19
G383	none	0.19	0.11	0.13	0.19
G384	none	-0.32	-0.14	-0.16	-0.12
A385	none	0.00	-0.25	-0.04	-0.19
A386	none	0.03	0.02	0.05	0.00
A387	none	0.02	-0.02	0.04	-0.03
A388	none	0.04	-0.06	0.03	0.09
A389	none	0.16	0.02	-0.04	-0.10
A390	none	0.02	-0.09	0.05	0.03
U391	none	0.09	-0.06	0.02	0.05
U392	none	0.08	-0.03	0.12	0.06
C393	none	0.06	-0.03	0.17	0.03
G394	none	0.02	0.15	0.13	-0.02
G395	none	-0.04	-0.42	-0.05	-0.29
U396	none	-0.04	-0.03	0.11	-0.08
U397	none	0.04	-0.01	-0.02	-0.14
A398	none	0.07	0.01	-0.02	-0.01
A399	none	-0.01	0.00	0.01	0.05

The last 2 entries again:

| position | domain | 2G capped high-salt | 2G capped low-salt | 2G uncapped high-salt | 2G uncapped low-salt |
|---|---|---|---|---|---|
| A398 | none | 0.07 | 0.01 | -0.02 | -0.01 |
| A399 | none | -0.01 | 0.00 | 0.01 | 0.05 |